Compound potency records, mixed from different reports. Data source: NIAID ChemDB in PubChem.

Shared fields: enzyme or target tests; agent: Toxoplasma gondii; target: DHFR; endpoint: IC50

ICn: concentration for n% inhibition.

structure | result
Nc1nc(N)c2c(CNc3cc(Cl)c(-n4cccc4)c(Cl)c3)csc2n1 | >10 µM
Nc1ccc(S(=O)(=O)Nc2ccccn2)cc1 | 4.6 µM
CC1(C)N=C(N)N=C(N)N1c1ccc(-c2ccc3c(Cl)cc(Cl)cc3c2)cc1 | 0.41 µM
Nc1nc(N)c2nc(CCc3ccnc4ccccc34)cnc2n1 | 0.61 µM
Cc1ccnc(NS(=O)(=O)c2ccc(N)cc2)n1 | 7.2 µM
CC(C)c1nc2nc(N)nc(N)c2nc1C(C)C | 0.033 µM
Nc1nc(N)c2nc(CC3CCCCC3)c(CC3CCCCC3)nc2n1 | 0.46 µM
Nc1nc(N)c2nc(CCc3ccccc3)cnc2n1 | 0.74 µM
Nc1ccc(S(=O)(=O)NC(=O)c2ccccc2)cc1 | 15 µM
CC1(C)N=C(N)N=C(N)N1c1ccc(-c2ccc3c(Cl)c(Cl)ccc3c2)cc1 | 1.4 µM
Cl.Nc1nc(N)c2nc(CCc3ccccn3)cnc2n1 | 9.9 µM
Cc1cc(C)nc(NS(=O)(=O)c2ccc(N)cc2)n1 | 5.7 µM
COc1ccc(N2C(N)=NC(N)=NC2(C)C)c(OC)c1 | >90 µM
COc1cc(NCc2csc3nc(N)nc(N)c23)cc(OC)c1OC | >10 µM
Nc1ccc(S(=O)(=O)Nc2nccs2)cc1 | 1.7 µM
Nc1nc(N)c2nc(CCc3ccc4ccccc4n3)cnc2n1 | 0.59 µM
Nc1nc(N)c2nc3c(ccc4ccccc43)nc2n1 | 4.9 µM
Nc1nc(N)c2nc(CC3CCCCC3)c(CC3CCCCC3)nc2n1 | 0.46 µM
O=C1C(CCS(=O)c2ccccc2)C(=O)N(c2ccccc2)N1c1ccccc1 | 1000 µM
CCCOc1cccc2nc(N)nc(N)c12 | 0.15 µM
COc1cc(CCc2cnc3nc(N)nc(N)c3n2)cc(OC)c1OC | 0.7 µM
Nc1ccc(S(=O)(=O)c2ccc(N)cc2)cc1 | 0.25 µM

A second listing of 2 rows from above:

structure,result
COc1cc(NCc2csc3nc(N)nc(N)c23)cc(OC)c1OC,>10 µM
Nc1nc(N)c2nc3c(ccc4ccccc43)nc2n1,4.9 µM

Conditions beyond the fields shown may differ between rows.